Results of unrelated studies side by side (data: NIAID ChemDB).

All rows: growth or infection tests; agent: HIV-1; cell line: PBMC; read-out: EC90

An empty or dashed field is not shown. Lines come from different laboratories, so protocols vary. ECn is the concentration giving n% inhibition of infection, replication or growth.

SMILES	strain or isolate	changes	method	result
C/C(=N\NC(=O)CN1c2c(-c3ccccc3)n[nH]c2-c2ccccc2S1(=O)=O)c1cc(C)oc1C			RT activity	>100 µM
CC(C)(C)C(=O)OCOP(=O)(CC[C@H]1O[C@@H](n2cnc3c(N)ncnc32)[C@](C)(F)[C@@H]1O)OCOC(=O)C(C)(C)C	LAI		PCR	>100 µM
Cc1nc2ccccc2nc1COC(=O)c1ccc2ccccc2c1O	BaL		RT activity	>100 µM
CNc1ncnc2c1c(F)cn2[C@@H]1O[C@H](CO)[C@@H](O)[C@@]1(C)F				>100 µM
O=c1[nH]cnc2c1ncn2[C@H]1S[C@@H](CO)[C@@H]1CO	xxBRU		RT activity	>100 µM
Cc1cn([C@H]2CO[C@@H](CO[P@@]3(=O)OCC[C@@H](c4cccc(Cl)c4)O3)O2)c(=O)[nH]c1=O	LAI	RT-M184V	RT activity	55.9 µM
CC(C)(C)OC(=O)N1[C@H](CO)CC(F)(F)[C@@H]1n1ccc(=O)[nH]c1=O	LAI		RT activity	>100 µM
COc1ncnc2c1ccn2[C@@H]1O[C@H](CO)[C@@H](O)[C@@]1(C)F				85.6 µM
NCC(NC(=O)c1ccc(-c2cc(F)c(Cl)c(F)c2)[nH]1)c1nc(CO)cs1	NL4-3		p24 / ELISA	>10 µM
C[C@@]1(F)[C@H](O)[C@@H](CO)O[C@H]1n1cc(I)c2c(N)ncnc21				>100 µM
COC(=O)C(C)(C)NP(=O)(OC[C@@H]1OC[C@H](n2cc(C)c(=O)[nH]c2=O)O1)Oc1ccccc1	LAI	RT-M184V	RT activity	3.3 µM
Cc1cn([C@@H]2S[C@H](CO)[C@H]2CO)c(=O)[nH]c1=O	xxBRU		RT activity	>100 µM
COC(=O)[C@H](C)NP(=O)(OC[C@@H]1OC[C@H](n2cc(C)c(=O)[nH]c2=O)O1)Oc1ccccc1Cl	LAI	RT-M184V	RT activity	2.6 µM
C#Cc1cn([C@@H]2O[C@H](CO)[C@@H](O)[C@@]2(C)F)c2ncnc(N)c12				>100 µM
CC(C)(C)OC(=O)N1[C@H](CO)CC(F)(F)[C@H]1n1ccc(=O)[nH]c1=O	LAI			>100 µM
Nc1nc(NC2CC2)c2ncn([C@H]3C=C[C@@H](CO)C3)c2n1	XM-Q151M	RT-A62V V75I F77C F116Y Q151M	p24	3.1 µM
Cc1cn([C@H]2C[C@H](N=[N+]=[N-])[C@@H](CO)O2)c(=O)[nH]c1=O			RT activity	0.014 µM
Nc1nc2c(ncn2[C@@H]2C=C(F)[C@H](CO)C2)c(=O)[nH]1	LAI		RT activity	>100 µM
C/C(=N\NC(=O)CN1c2c(-c3ccccc3)n[nH]c2-c2ccccc2S1(=O)=O)c1sccc1C			RT activity	>100 µM
CC(C)(C)OC(=O)N1[C@H](CO)CC(F)(F)[C@H]1n1cnc2c(N)ncnc21	LAI		RT activity	>100 µM
Cc1nc2ccccc2nc1COC(=O)c1ccc(O)cc1O	BaL		RT activity	>100 µM
O=c1ccn([C@@H]2S[C@H](CO)[C@H]2CO)c(=O)[nH]1	xxBRU		RT activity	23.1 µM
C/C(=N\NC(=O)CN1c2c(-c3ccccc3)n[nH]c2-c2ccccc2S1(=O)=O)c1nccs1			RT activity	>100 µM
Nc1nc(=O)n([C@H]2C=C[C@@H](CO)O2)cc1F	XM-AZT-resistant	RT-M41L D67N K70R T215Y K219Q	p24	1.1 µM
C/C(=N\NC(=O)CN1c2c(-c3ccccc3)n[nH]c2-c2ccccc2S1(=O)=O)c1ccc([N+](=O)[O-])s1			RT activity	>100 µM
Cc1nc2ccccc2nc1COC(=O)c1ccc(O)cc1	BaL		RT activity	>100 µM
Nc1nc2c(ncn2[C@H]2C=C(F)[C@@H](CO)C2)c(=O)[nH]1	LAI		RT activity	2.8 µM
C[C@@]1(F)[C@H](O)[C@@H](CO)O[C@H]1n1cc(Cl)c2c(N)ncnc21				>100 µM
C/C(=N\NC(=O)CN1c2c(-c3ccccc3)n[nH]c2-c2ccccc2S1(=O)=O)c1sccc1Br			RT activity	>100 µM
CC(C)(C)C(=O)OCOP(=O)(CC[C@H]1O[C@@H](n2cnc3c(N)nc(N)nc32)[C@](C)(F)[C@@H]1O)OCOC(=O)C(C)(C)C	LAI		PCR	>100 µM
COC(=O)c1ccc(C(=O)OCc2nc3ccccc3nc2C)cc1	89BZ167		RT activity	>100 µM
Cc1cn([C@H]2CO[C@@H](CO[P@]3(=O)OCC[C@H](c4cccc(Cl)c4)O3)O2)c(=O)[nH]c1=O	LAI	RT-M184V	RT activity	40 µM
C#Cc1cn([C@@H]2O[C@H](CO)[C@@H](O)[C@@]2(C)F)c2nc(N)nc(N)c12				>100 µM
Nc1nc2c(ncn2[C@H]2S[C@@H](CO)[C@@H]2CO)c(=O)[nH]1	xxBRU		RT activity	>100 µM
CC(C)(C)OC(=O)N1[C@H](CO)CC(F)(F)[C@@H]1n1cnc2c(Cl)ncnc21	LAI		RT activity	>100 µM
Cc1cn([C@H]2C[C@H](N=[N+]=[N-])[C@@H](CO)O2)c(=O)[nH]c1=O	BaL		RT activity	0.0287 µM
CC(C)(C)OC(=O)N1[C@H](CO)CC(F)(F)[C@@H]1n1cnc2ncnc(Cl)c21	LAI		RT activity	>100 µM
C[C@@]1(F)[C@H](O)[C@@H](CO)O[C@H]1n1ccc2c(N)nc(N)nc21				>100 µM
COc1cccc(OC)c1C(=O)OCc1nc2ccccc2nc1C	BaL		RT activity	>100 µM
CC(C)(C)OC(=O)N1[C@H](CO)CC(F)(F)[C@@H]1n1cnc2c(N)ncnc21	LAI		RT activity	>100 µM
Cc1ccc(C(=O)OCc2nc3ccccc3nc2C)cc1O	89BZ167		RT activity	>100 µM
COC(=O)/C=C/c1cn([C@@H]2O[C@H](CO)[C@@H](O)[C@@]2(C)F)c2ncnc(N)c12				>100 µM

A second listing of 2 rows from above:

SMILES,strain or isolate,changes,method,result
COC(=O)c1ccc(C(=O)OCc2nc3ccccc3nc2C)cc1,89BZ167,,RT activity,>100 µM
Cc1nc2ccccc2nc1COC(=O)c1ccc(O)cc1O,BaL,,RT activity,>100 µM